Not every entry of the source has a single result; some have several. The list is limited to them. There may be further records. The values listed for one entry differ, and nothing given here explains why; dose, time, organism, isomer or construct need not be as stated for each record.
Assays:
[1] = test system: Candida albicans; test: Fungal growth inhibition, C. albicans (library hits, Tables A and B); assay type: cell-based; settings: strain not stated; for MIC C. albicans (Table A): Table A in S1 File
[2] = test system: Candida krusei ATCC 6258; test: Fungal growth inhibition, C. krusei; assay type: cell-based; settings: Table B in S1 File, strain not stated
Description: (§1) Fungal isolates were purchased from American Type Culture Collection, except for C. glabrata strain Cg003, which was kindly provided by Julius Subik, Comenius University in Bratislava, Slovak Republic. Cg003 is a clinical isolate, characterized to be resistant to fluconazole and itraconazole due to overexpression of the multidrug resistance efflux pumps Cdr1p and Cdr2p. Saccharomyces cerevisiae (ATCC 9763), Candida albicans (ATCC 90028), Candida albicans (SC5314), Candida glabrata (ATCC 90030), Candida glabrata (Cg003) and Candida krusei (ATCC 6258) were grown in Sabouraud broth (40 g/L D-glucose, 10 g/L peptone, pH 5.6) or YPD (10 g/L yeast extract, 20 g/L Bacto-peptone, 20 g/L glucose) medium to mid log phase, aliquoted into 20% (v/v) glycerol and cryopreserved as stocks at -80°C. For each growth assay, cells from these stocks were diluted in sterile water to OD600 = 0.025, which corresponds to a final starting inoculum of 0.5–2.5 x 10^5 CFU/mL. Growth assays were carried out by pipetting 3 μL compound dissolved in DMSO, 100 μL cell suspension and 97 μL 2 x RPMI media (20.8 g/L RPMI-1640 (Sigma-Aldrich catalog number R6504) 330 mM MOPS, 36 g/L glucose) into a microtiter plate and incubating for 24 h at 34°C, followed by OD measurement at 490 nm. […]

[3] = test system: C. parapsilosis; test: Fungal growth inhibition, C. parapsilosis; assay type: cell-based, Candida parapsilosis; settings: Table B in S1 File, strain not stated
Description: as §1

SMILES	MIC C. albicans (Table A) [1]	MIC C. albicans (Table B) ([1]; Table B in S1 File)	MIC C. krusei (Table B) [2]	MIC C. parapsilosis (Table B) [3]
O=C(NC1CCCc2c1[nH]c1ccc(Br)cc21)c1ccccc1F (centres unmarked)	> 150 µM and nor exhibited antifungal activity			
O=C(NC1CCCc2c1[nH]c1ccc(Br)cc21)c1ccccn1 (centres unmarked)	> 150 µM and nor exhibited antifungal activity			
CC1Cc2c([nH]c3cc(Cl)c(F)cc23)C2(N1)C(=O)Nc1ccc(Cl)cc12 (centres unmarked)		> 75 µM and does not have antifungal activity	> 75 µM and does not have antifungal activity	> 75 µM and does not have antifungal activity

Reference: article PMC5749684, “Tetrahydrocarbazoles are a novel class of potent P-type ATPase inhibitors with antifungal activity” (PLoS ONE, 2018)
